Pooled drug test results. Numbers come from NIAID ChemDB, via PubChem.

ICn is the concentration giving n% inhibition. Percent inhibition refers to the dose given; in toxicity tests it is the harm to the cells. Lines come from different laboratories, so protocols vary. Blank or dashed fields: not listed here.

structure	organism	target	strain	read by	test	read-out	cell line	tested at	value
Cc1cc(=O)[nH]c2ccc3ccccc3c12	Mycobacterium tuberculosis	-	H37Rv	-	culture	MIC	-	-	>100 µg/mL
Fc1ccc(N2CCCCC2)c(NC(=S)c2ccncc2)c1	-	Syk	-	kinase activity	host protein	inhibition	-	10 µM	6%
c1ccc(SCCCCSc2ccccc2)cc1	Mycobacterium tuberculosis	-	H37Rv	-	culture	MIC	-	-	>100 µg/mL
COc1cc(/C=C2/CN(C)CC3=C2NC(=S)NC3c2cc(OC)c(OC)c(OC)c2)cc(OC)c1OC.Cl	Mycobacterium tuberculosis	-	H37Rv	BACTEC	culture	inhibition	-	12.5 µg/mL	0%
Cc1cccc(-c2cncc(N3CCN(c4ccc(Cl)cc4)CC3)n2)c1	Cytomegalovirus	UL97 kinase	-	-	target	IC50	-	-	<100 µM
NC(CCOCCP(=O)(O)CCOCCC(N)C(=O)O)C(=O)O	Mycobacterium tuberculosis	-	H37Rv	BACTEC	culture	inhibition	-	12.5 µg/mL	17%
CSc1ccc(-c2cncc(N3CCN(c4cccc(Cl)c4)CC3)n2)cc1	Cytomegalovirus	UL97 kinase	-	-	target	IC50	-	-	<10 µM
c1cnc2c(c1)ccc1cccnc12	Mycobacterium tuberculosis	-	H37Rv	BACTEC	culture	MIC	VERO	-	6.25 µg/mL
Fc1ccc(-c2cncc(N3CCN(c4ccncc4)CC3)n2)c(F)c1	Cytomegalovirus	UL97 kinase	-	-	target	inhibition	-	1 µM	<50%
O=C(O)c1ccccc1S	Mycobacterium tuberculosis	-	H37Rv	-	culture	MIC	-	-	50 µg/mL
CC(=O)c1cccc(-c2cncc(N3CCN(c4cccc(C)c4C)CC3)n2)c1	Cytomegalovirus	UL97 kinase	-	-	target	IC50	-	-	<100 µM
CCOC(=O)NC	Mycobacterium tuberculosis	-	H37Rv	-	culture	MIC	-	-	>100 µg/mL
C=C(C)C1CC=C(C)/C(=N/NC(=O)c2cccnc2)C1	Mycobacterium tuberculosis	-	ETA-R	-	culture	MIC	-	-	6.3 µg/mL
Fc1ccc(-c2cncc(N3CCN(c4ccccn4)CC3)n2)cc1	Cytomegalovirus	UL97 kinase	-	-	target	inhibition	-	1 µM	<50%
N[C@H](C(=O)O)[C@H]1ON=C(Cl)[C@@H]1O	Mycobacterium tuberculosis	-	TAC-R	-	culture	MIC	-	-	12.5 µg/mL
Nc1ccc(S(=O)(=O)Nc2ccc(S(=O)(=O)[O-])cc2)cc1.[Na+]	Mycobacterium tuberculosis	-	H37Rv	-	culture	MIC	-	-	>100 µg/mL
CCC12C=CCN3CC[C@@]4(c5ccc(OC)cc5N(C)[C@H]4[C@@](O)(C(=O)OC)[C@@H]1OC(C)=O)[C@@H]32	Mycobacterium tuberculosis	-	H37Rv	BACTEC	culture	inhibition	-	12.5 µg/mL	6%
O=[N+]([O-])c1ccc2c(c1)S(=O)(=O)c1ccccc1O2	Mycobacterium tuberculosis	-	H37Rv	-	culture	MIC	-	-	>100 µg/mL
COC1/C=C\C=C(/C)C(=O)Nc2cc3nc4ccc(Br)cc4oc-3c(c2=O)CC(C)CC(OC)C(O)C(C)/C=C(\C)C1OC(N)=O	Mycobacterium tuberculosis	-	H37Rv	-	culture	MIC	-	-	12.5 µg/mL
COc1ccccc1N1CCN(c2cncc(-c3ccc(C(C)(C)C)cc3)n2)CC1	Cytomegalovirus	UL97 kinase	-	-	target	inhibition	-	10 µM	>15%
Nc1nccc(N2CCOCC2)n1	Mycobacterium tuberculosis	-	H37Rv	-	culture	MIC	-	-	>100 µg/mL

A second listing of 3 rows from above:

structure,organism,target,strain,read by,test,read-out,cell line,tested at,value
Nc1nccc(N2CCOCC2)n1,Mycobacterium tuberculosis,-,H37Rv,-,culture,MIC,-,-,>100 µg/mL
Nc1ccc(S(=O)(=O)Nc2ccc(S(=O)(=O)[O-])cc2)cc1.[Na+],Mycobacterium tuberculosis,-,H37Rv,-,culture,MIC,-,-,>100 µg/mL
O=[N+]([O-])c1ccc2c(c1)S(=O)(=O)c1ccccc1O2,Mycobacterium tuberculosis,-,H37Rv,-,culture,MIC,-,-,>100 µg/mL